Measurements reported in PubChem BioAssay AID504761 (Drosophila RNAi Screening Center, 2011).
The deposit covers about 22,000 reagents; below is a random part of those that have a named target and a result. In the full data, 116 (0.52%) are marked active. 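Calls depend on retest data that are not deposited; infection was ranked per plate without normalising between plates; the unit of the infection score is not given.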 Not all columns of the deposit are shown. Not given: the amount of reagent, the time to read-out.

Screen: 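Fly genes whose silencing reduces dengue virus type 2 infection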 (primary screen)
Cell system: D.Mel-2 cells from Drosophila
Reagents: long dsRNA against Drosophila genes
Challenge: infection with dengue virus type 2; dose and infection time not stated
Read-out: 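Per well on two replicate plates, imaging gave the percent of cells positive for viral envelope protein, ranked by infection, and a nuclear count of cells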
Direction: infection score: higher = more virus-infected cells
Hit rule: 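Very low infection ranking in both replicate wells (chance probability at most 0.065), then a retest showing infection dropped 1.5-fold or more at p below 0.05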
Meaning of the calls: active = confirmed: knock-down lowers infection; inactive = not picked or not confirmed

{"Gene": "CG32726 (GeneID 318175)", "amplicon": "DRSC17521", "infection score, replicate 1": 1.75, "Outcome": "inactive"}
{"Gene": "CG34357 (GeneID 5740349)", "amplicon": "DRSC12211", "infection score, replicate 1": 1.77, "Outcome": "inactive"}
{"Gene": "CG34357 (GeneID 5740349)", "amplicon": "DRSC12334", "infection score, replicate 1": 5.29, "Outcome": "inactive"}
{"Gene": "CG34357 (GeneID 5740349)", "amplicon": "DRSC23031", "infection score, replicate 1": 1.89, "Outcome": "inactive"}
{"Gene": "CG34357 (GeneID 5740349)", "amplicon": "DRSC28043", "infection score, replicate 1": 4.64, "Outcome": "inactive"}
{"Gene": "CG34357 (GeneID 5740349)", "amplicon": "DRSC28595", "infection score, replicate 1": 7, "Outcome": "inactive"}
{"Gene": "CG10553 (GeneID 43064)", "amplicon": "DRSC14254", "infection score, replicate 1": 3.95, "Outcome": "inactive"}
{"Gene": "SA1 (GeneID 33974)", "amplicon": "DRSC03424", "infection score, replicate 1": 7.54, "Outcome": "inactive"}
{"Gene": "SA1 (GeneID 33974)", "amplicon": "DRSC28222", "infection score, replicate 1": 13.1, "Outcome": "inactive"}
{"Gene": "Wdr92 (GeneID 39997)", "amplicon": "DRSC10187", "infection score, replicate 1": 5.38, "Outcome": "inactive"}

A portion of the results above, as a working copy:
{"Gene": "CG34357 (GeneID 5740349)", "amplicon": "DRSC28595", "infection score, replicate 1": 7, "Outcome": "inactive"}
{"Gene": "CG10553 (GeneID 43064)", "amplicon": "DRSC14254", "infection score, replicate 1": 3.95, "Outcome": "inactive"}

Continued:
{"Gene": "CG6435 (GeneID 36894)", "amplicon": "DRSC06987", "infection score, replicate 1": 17, "Outcome": "inactive"}
{"Gene": "CG12347 (GeneID 42152)", "amplicon": "DRSC14502", "infection score, replicate 1": 0.81, "Outcome": "inactive"}
{"Gene": "wap (GeneID 33131)", "amplicon": "DRSC20626", "infection score, replicate 1": 16, "Outcome": "inactive"}
{"Gene": "Prp6 (GeneID 40064)", "amplicon": "DRSC10724", "infection score, replicate 1": 3.47, "Outcome": "inactive"}
{"Gene": "Prp6 (GeneID 40064)", "amplicon": "DRSC21773", "infection score, replicate 1": 10.7, "Outcome": "inactive"}
{"Gene": "wech (GeneID 44653)", "amplicon": "DRSC06606", "infection score, replicate 1": 5.01, "Outcome": "inactive"}
{"Gene": "Npc2e (GeneID 326136)", "amplicon": "DRSC15522", "infection score, replicate 1": 7.16, "Outcome": "inactive"}
{"Gene": "Npc2e (GeneID 326136)", "amplicon": "DRSC22338", "infection score, replicate 1": 2.65, "Outcome": "inactive"}
{"Gene": "nahoda (GeneID 37641)", "amplicon": "DRSC03954", "infection score, replicate 1": 3.96, "Outcome": "inactive"}
{"Gene": "nahoda (GeneID 37641)", "amplicon": "DRSC04126", "infection score, replicate 1": 12.4, "Outcome": "inactive"}
{"Gene": "CG14195 (GeneID 32911)", "amplicon": "DRSC19550", "infection score, replicate 1": 4.66, "Outcome": "inactive"}
